## Share of PSTVd loop 15 variants by leaf site

Source: Wu et al. 2024 (doi:10.1371/journal.ppat.1012142), supplementary data.

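A pool of all variants was put on leaves of three Nicotiana benthamiana plants. Samples came from the inoculated region at 5 days, the leaf margin at 10 and upper systemic leaves at 12.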

The pool varies loop 15 of the PSTVd intermediate strain in the pattern GGAAACCGNNNNNNC; wild type is GGAAACCGCUACUAC (upper and lower strand joined, each 5' to 3', the first 7 letters being the upper strand, closing pairs included).

Numbers give reads per thousand; 0 = not seen among the reads, higher = more abundant.
Each site shows the three plants.
"Pool" is the share in the plasmid pool used as inoculum, on the same scale.
The inoculated region was read from the minus strand, the other sites from the plus strand.
The authors trace changes outside the varied positions to PCR and sequencing errors or to mutation in the plant; presence does not show that a variant is infectious alone.
Wild type was 33.9 per thousand in the pool and the most common sequence in every sample (inoculated region 202, 200, 159; leaf margin 724, 746, 710; systemic leaves 856, 883, 880).
Samples held 43,870 to 66,106 reads, so the smallest values rest on one or two reads.

| sequence | pool | inoculated region | leaf margin | systemic leaves |
|---|---|---|---|---|
| GGAAACCGGUAUCAC | 0.224 | 0.442 / 0.418 / 0.476 | 0.162 / 0.111 / 0.180 | 0.0483 / 0.0605 / 0.0456 |
| GGAAACCGGUAUCCC | 0.304 | 0.0819 / 0.0643 / 0.133 | 0.0162 / 0 / 0 | 0 / 0 / 0 |
| GGAAACCGGUAUCGC | 0.160 | 0.0655 / 0.112 / 0.0190 | 0.0162 / 0 / 0.0200 | 0.0322 / 0 / 0.0228 |
| GGAAACCGGUAUCUC | 0.256 | 0.0819 / 0.0321 / 0.0952 | 0.0323 / 0 / 0.0401 | 0 / 0 / 0 |
| GGAAACCGGUAUGAC | 0.192 | 0.0655 / 0.129 / 0.171 | 0 / 0 / 0.0401 | 0 / 0 / 0 |
| GGAAACCGGUAUGCC | 0.128 | 0.131 / 0.0482 / 0.114 | 0 / 0 / 0.0200 | 0.0161 / 0 / 0 |
| GGAAACCGGUAUGGC | 0.272 | 0.0983 / 0.0321 / 0.0762 | 0 / 0 / 0 | 0 / 0 / 0 |
| GGAAACCGGUAUGUC | 0.272 | 0.0819 / 0.0643 / 0.0571 | 0 / 0 / 0 | 0 / 0 / 0 |
| GGAAACCGGUAUUAC | 0.224 | 0.295 / 0.273 / 0.324 | 0.146 / 0.200 / 0.140 | 0.0966 / 0.0908 / 0.137 |
| GGAAACCGGUAUUCC | 0.256 | 0.278 / 0.241 / 0.267 | 0.146 / 0.0891 / 0.200 | 0.0322 / 0 / 0 |
| GGAAACCGGUAUUGC | 0.192 | 0.360 / 0.257 / 0.286 | 0.0808 / 0.0891 / 0.0801 | 0.0322 / 0 / 0 |
| GGAAACCGGUAUUUC | 0.176 | 0.262 / 0.241 / 0.267 | 0.146 / 0.134 / 0.100 | 0.0483 / 0.0303 / 0.0456 |
| GGAAACCGGUCAAAC | 0.304 | 0.0819 / 0.129 / 0.0762 | 0.0323 / 0.0223 / 0 | 0 / 0 / 0 |
| GGAAACCGGUCAACC | 0.144 | 0.115 / 0.0482 / 0.114 | 0.0485 / 0 / 0.0200 | 0 / 0 / 0 |
| GGAAACCGGUCAAGC | 0.256 | 0.0819 / 0.0964 / 0.0571 | 0 / 0.0223 / 0 | 0.0161 / 0 / 0 |
| GGAAACCGGUCAAUC | 0.400 | 0.0655 / 0.0643 / 0.190 | 0 / 0 / 0.0401 | 0 / 0 / 0 |
| GGAAACCGGUCACAC | 0.240 | 0.164 / 0.129 / 0.0571 | 0.0162 / 0 / 0.0200 | 0 / 0 / 0 |
| GGAAACCGGUCACCC | 0.192 | 0.0655 / 0.0643 / 0.0952 | 0 / 0.0445 / 0.0200 | 0 / 0 / 0 |
| GGAAACCGGUCACGC | 0.192 | 0.115 / 0.112 / 0.152 | 0.0323 / 0 / 0 | 0.0161 / 0 / 0 |
| GGAAACCGGUCACUC | 0.304 | 0.180 / 0.0643 / 0.133 | 0.0485 / 0 / 0 | 0.0161 / 0 / 0 |
| GGAAACCGGUCAGAC | 0.160 | 0.115 / 0.129 / 0.152 | 0.0323 / 0.0223 / 0.0601 | 0.0322 / 0 / 0 |
| GGAAACCGGUCAGCC | 0.288 | 0.0164 / 0.0964 / 0.0762 | 0 / 0.0223 / 0.0401 | 0 / 0 / 0 |
| GGAAACCGGUCAGGC | 0.192 | 0.131 / 0.145 / 0.171 | 0 / 0.0223 / 0.0200 | 0 / 0 / 0 |
| GGAAACCGGUCAGUC | 0.240 | 0.0491 / 0.0803 / 0.0190 | 0 / 0 / 0.0401 | 0 / 0 / 0 |
| GGAAACCGGUCAUAC | 0.256 | 0.295 / 0.289 / 0.400 | 0.113 / 2.12 / 0.120 | 0.0322 / 0.0756 / 0.160 |
| GGAAACCGGUCAUCC | 0.240 | 0.147 / 0.0803 / 0.133 | 0 / 0 / 0 | 0 / 0 / 0 |
| GGAAACCGGUCAUGC | 0.256 | 0.0655 / 0.129 / 0.133 | 0 / 0.0223 / 0 | 0 / 0 / 0 |
| GGAAACCGGUCAUUC | 0.208 | 0.115 / 0.209 / 0.0952 | 0 / 0 / 0.0401 | 0 / 0 / 0 |
| GGAAACCGGUCCAAC | 0.240 | 0.0983 / 0.177 / 0.171 | 0 / 0.0223 / 0.0401 | 0.0322 / 0 / 0 |
| GGAAACCGGUCCACC | 0.240 | 0.0328 / 0.129 / 0.0571 | 0 / 0 / 0 | 0 / 0 / 0 |
| GGAAACCGGUCCAGC | 0.176 | 0.0819 / 0.145 / 0.0762 | 0.0162 / 0 / 0.0200 | 0.0161 / 0 / 0 |
| GGAAACCGGUCCAUC | 0.288 | 0.0819 / 0.177 / 0.0952 | 0 / 0.0223 / 0 | 0 / 0 / 0 |
| GGAAACCGGUCCCAC | 0.176 | 0.115 / 0.112 / 0.114 | 0 / 0 / 0.0401 | 0 / 0 / 0 |
| GGAAACCGGUCCCCC | 0.224 | 0.131 / 0.161 / 0.133 | 0.0162 / 0.0223 / 0 | 0 / 0 / 0 |
| GGAAACCGGUCCCGC | 0.192 | 0.0491 / 0.145 / 0.0762 | 0.0162 / 0 / 0 | 0 / 0 / 0 |
| GGAAACCGGUCCCUC | 0.320 | 0.0983 / 0.193 / 0.133 | 0.0162 / 0 / 0.0401 | 0.0161 / 0 / 0 |
| GGAAACCGGUCCGAC | 0.176 | 0.0983 / 0.0161 / 0.152 | 0 / 0 / 0 | 0 / 0 / 0 |
| GGAAACCGGUCCGCC | 0.288 | 0.0819 / 0.145 / 0.133 | 0 / 0.0223 / 0 | 0 / 0 / 0 |
| GGAAACCGGUCCGGC | 0.288 | 0.0983 / 0.112 / 0.0762 | 0 / 0 / 0 | 0 / 0 / 0 |
| GGAAACCGGUCCGUC | 0.208 | 0.131 / 0.0482 / 0.133 | 0.0162 / 0.0223 / 0 | 0 / 0 / 0 |

The first 5 entries again:

GGAAACCGGUAUCAC (pool 0.224): inoculated region 0.442 / 0.418 / 0.476; leaf margin 0.162 / 0.111 / 0.180; systemic leaves 0.0483 / 0.0605 / 0.0456.
GGAAACCGGUAUCCC (pool 0.304): inoculated region 0.0819 / 0.0643 / 0.133; leaf margin 0.0162 / 0 / 0; systemic leaves 0 / 0 / 0.
GGAAACCGGUAUCGC (pool 0.160): inoculated region 0.0655 / 0.112 / 0.0190; leaf margin 0.0162 / 0 / 0.0200; systemic leaves 0.0322 / 0 / 0.0228.
GGAAACCGGUAUCUC (pool 0.256): inoculated region 0.0819 / 0.0321 / 0.0952; leaf margin 0.0323 / 0 / 0.0401; systemic leaves 0 / 0 / 0.
GGAAACCGGUAUGAC (pool 0.192): inoculated region 0.0655 / 0.129 / 0.171; leaf margin 0 / 0 / 0.0401; systemic leaves 0 / 0 / 0.